A mixed list of measured activities; the numbers were collected in NIAID ChemDB.

Common to all: whole-cell or culture tests; agent: HIV-1

ECn: concentration that inhibits the pathogen or its effect by n%. Rows are shuffled and stem from different studies. Blank or dashed fields: not listed here.

smiles,read by,changes,strain or isolate,cells,endpoint,value
CCCCCCCCC(=O)O[C@@]12[C@H](OC(=O)/C=C/c3ccc(OC)cc3)[C@@H](C)[C@@]3(O)[C@@H](C=C(CO)C[C@]4(O)C(=O)C(C)=C[C@@H]34)[C@@H]1C2(C)C,syncytia / visual reading,-,IIIB,C8166,EC50,0.0337 µM
CC(C)CN(CC(O)CC(=O)N1CSC[C@@H]1C(=O)NC(C)(C)C)S(=O)(=O)c1ccccc1,p24,-,IIIB,CEM,EC50,<1 µM
CC(C)=CCOc1cc(NC(=S)c2ccoc2C)ccc1Cl,cytopathic effect / XTT,-,IIIB,CEM + CEM-SS,EC50,0.01 µM
CC(C)OC(=S)Nc1ccc(Cl)c(C(=O)OC2CCCC2)c1,syncytia,RT-E138K,-,CEM,EC50,1.755 µM
Cc1cc(/C=C/C#N)cc(C)c1Oc1ccnc(S(=O)(=O)CC(=O)Nc2ccc(Cl)cc2)n1,MTT,-,IIIB,MT-4,EC50,0.007 µM
CCCCOC(=O)c1cc(NC(=S)OC(C)C)ccc1Cl,syncytia,RT-L100I,-,CEM,EC50,1.9 µM
CC(C)CN(CC(O)CCN1CCCC[C@H]1C(=O)NC(C)(C)C)S(=O)(=O)c1ccccc1,p24,-,IIIB,CEM,EC50,<1 µM
Cc1cc(-c2ccc(C#N)cc2)cc(C)c1Oc1ccnc(S(=O)(=O)CC(=O)Nc2ccc(Cl)cc2)n1,MTT,F227L V106A,IIIB,MT-4,EC50,4.333 µM
C=C(C)[C@@H]1CC[C@]2(C(=O)O)CC[C@]3(C)[C@H](CC[C@@H]4[C@@]5(C)CC=C(c6ccc(CCC(=O)O)cc6)C(C)(C)[C@@H]5CC[C@]43C)[C@@H]12,luciferase,Gag P373S,NL4-3,MT-2,EC50,1 µM
Cc1cc(-c2ccc(C#N)cc2)cc(C)c1Oc1ccnc(S(=O)(=O)C(C)C(=O)Nc2ccc(Cl)cc2)n1,MTT,F227L V106A,IIIB,MT-4,EC50,2.49 µM
C=C(C)COc1cc(NC(=S)OC(C)C)ccc1Cl,syncytia,RT-Y181C,-,CEM,EC50,>3.335 µM
C=C(C)[C@@H]1CC[C@]2(C(=O)OC)CC[C@]3(C)[C@H](CC[C@@H]4[C@@]5(C)CC=C(c6ccc(C(=O)O)cc6)C(C)(C)[C@@H]5CC[C@]43C)[C@@H]12,luciferase,Gag P373S,NL4-3,MT-2,EC50,1 µM
O=C(O)c1cc(-n2cccc2)ccc1Cl,p24,-,RU570 R5 CLADE G,PBMC + MT-2,EC50,39.68 µM
C/C=C\COc1cc(NC(=S)OC(C)C)ccc1Cl,syncytia,RT-Y181C,-,CEM,EC50,2 µM
CC(C)C1=C2[C@H]3CC[C@@H]4[C@@]5(C)CC[C@H](OC(=O)[C@H]6C[C@@H](C(=O)O)C6(C)C)C(C)(C)[C@@H]5CC[C@@]4(C)[C@]3(C)CC[C@@]2(CCNCc2cnn3cccnc23)CC1=O,p24 / ELISA,-,92HT599,MT-2,EC50,<1 µM
CC(C)OC(=S)Nc1ccc(Cl)c(C(=O)OC2(C)COC2)c1,syncytia,RT-V106A,-,CEM,EC50,2.472 µM
CC(C)C1=C2[C@H]3CC[C@@H]4[C@@]5(C)CC[C@H](OC(=O)[C@H]6C[C@@H](C(=O)O)C6(C)C)C(C)(C)[C@@H]5CC[C@@]4(C)[C@]3(C)CC[C@@]2([C@@H](O)CNCC2CCC2)CC1=O,p24 / ELISA,-,92HT599,MT-2,EC50,<1 µM
COc1ccc(S(=O)(=O)N(CC(C)C)C[C@@H](O)CC(=O)N2CCN(C(=O)OCc3ccccc3)C[C@H]2C(=O)NC(C)(C)C)cc1,p24,-,IIIB,CEM,EC90,1 µM
CC(C)C1=C2[C@H]3CC[C@@H]4[C@@]5(C)CC[C@H](OC(=O)[C@H]6C[C@@H](C(=O)O)C6(C)C)C(C)(C)[C@@H]5CC[C@@]4(C)[C@]3(C)CC[C@@]2(CCNCC(C)(C)NC(=O)c2ccc(Cl)cc2OCCN2CCS(=O)(=O)CC2)CC1=O,p24 / ELISA,-,92HT599,MT-2,EC50,<1 µM
Nc1nc(NC2CC2)c2ncn([C@H]3C=C[C@@H](CO)C3)c2n1,p24,RT-T69SSS L210W T215Y,XM-T69SSS,PBMC,EC50,<34 µM
O=C(c1ccccc1)N(CCc1ccccc1)C[C@H](O)CN(CC1CCCC1)S(=O)(=O)C1CCCOC1,p24,-,IIIB,CEM,EC50,<1 µM
CC(C)OC(=S)Nc1ccc(Cl)c(C(=O)OCC(F)(F)F)c1,syncytia,RT-Y181C,-,CEM,EC50,>28.11 µM
COc1cc(-c2ccc(N=Nc3ccc4c(S(=O)(=O)O)cc(S(=O)(=O)O)c(N)c4c3O)c(OC)c2)ccc1N=Nc1ccc2c(S(=O)(=O)O)cc(S(=O)(=O)O)c(N)c2c1O,RT activity,-,McK,CEM + CEM-SS,EC50,0.6 µM
CC(C)OC(=O)Oc1cc(NC(=S)OC(C)C)ccc1Cl,syncytia,RT-Y181C,-,CEM,EC50,18.08 µM
C=C(C)[C@@H]1CC[C@]2(C(=O)O)CC[C@]3(C)[C@H](CC[C@@H]4[C@@]5(C)CC=C(c6ccc(C(=O)O)c(Cl)c6)C(C)(C)[C@@H]5CC[C@]43C)[C@@H]12,luciferase,Gag P373S,NL4-3,MT-2,EC50,1 µM
CC(=O)OCCOC(=O)c1cc(NC(=S)OC(C)C)ccc1Cl,syncytia,RT-L100I,-,CEM,EC50,≥27.79 µM
NC(=O)c1[nH]c2ccc(Cl)cc2c1S(=O)(=O)c1ccccc1,p24,RT-K103R V179D P225H,EFV-resistant (RT K103R V179D P225H),C8166,EC90,0.9 µM
Nc1nc(=O)n([C@H]2C=C[C@@H](CO)O2)cc1F,p24,-,NL4-3 WT,PBMC,EC50,<1.3 µM
CSc1ccc(NC(=S)OC(C)C)cc1C(=O)OC(C)C,syncytia,RT-Y181C,-,CEM,EC50,5.191 µM
CC(C)C1=C2[C@H]3CC[C@@H]4[C@@]5(C)CC[C@H](OC(=O)[C@H]6C[C@@H](C(=O)O)C6(C)C)C(C)(C)[C@@H]5CC[C@@]4(C)[C@]3(C)CC[C@@]2([C@@H](O)CNCC(C)(C)NC(=O)c2ccc(F)cc2)CC1=O,p24 / ELISA,-,92HT599,MT-2,EC50,<1 µM
COc1ccc(/C=C/C(=O)O[C@@H]2[C@@H](C)[C@@]3(O)[C@@H](C=C(CO)C[C@]4(O)C(=O)C(C)=C[C@@H]34)[C@@H]3C(C)(C)[C@]23OC(C)=O)cc1,p24 / ELISA,-,IIIB,C8166,EC50,0.047 µM
COC(=S)Nc1ccc(Cl)c(C(=O)OC(C)C)c1,syncytia,RT-E138K,-,CEM,EC50,>34.75 µM
Nc1ccn([C@@H]2CS[C@H](CO)O2)c(=O)n1,syncytia / visual reading,-,IIIB,C8166,EC50,0.1758 µM
CO/N=C/c1cc(NC(=S)OC(C)C)ccc1Cl,syncytia,-,IIIB,CEM,EC50,0.209 µM
Cc1cc(-c2ccc(C#N)cc2)cc(C)c1Oc1ccnc(S(=O)(=O)CC(=O)Nc2ccc(F)cc2)n1,MTT,K103N,IIIB,MT-4,EC50,0.035 µM
C=C(C)[C@@H]1CC[C@]2(C(=O)O)CC[C@]3(C)[C@H](CC[C@@H]4[C@@]5(C)CC=C(c6ccc(C(=O)O)s6)C(C)(C)[C@@H]5CC[C@]43C)[C@@H]12,luciferase,Gag P373S,NL4-3,MT-2,EC50,1 µM
O=C(c1ccccc1)N(CCc1ccccc1)C[C@H](O)CN(CC1CCCC1)S(=O)(=O)Cc1cccc2n[nH]nc12,p24,-,IIIB,CEM,EC90,1 µM
Cc1cc(-c2ccc(C#N)cc2)cc(C)c1Oc1ccnc(S(=O)(=O)CC(=O)Nc2ccc(Br)cc2)n1,MTT,F227L V106A,IIIB,MT-4,EC50,4.301 µM
CCOC(=O)c1cc(NC(=S)OC(C)C)ccc1SC,syncytia,RT-V106A,-,CEM,EC50,15.95 µM
Cc1cc(C#N)cc(C)c1Oc1ccnc(S(=O)(=O)CC(=O)Nc2ccc(C#N)cc2)n1,MTT,E138K,IIIB,MT-4,EC50,0.31 µM
CC(C)C1=C2[C@H]3CC[C@@H]4[C@@]5(C)CC[C@H](OC(=O)[C@H]6C[C@@H](C(=O)O)C6(C)C)C(C)(C)[C@@H]5CC[C@@]4(C)[C@]3(C)CC[C@@]2([C@@H](O)CNC[C@@H](CN)C(C)C)CC1=O,p24 / ELISA,-,92HT599,MT-2,EC50,<1 µM
O=C(O[C@H]1CCOC1)N(CCc1ccccc1)C[C@H](O)CN(CC1CCCC1)S(=O)(=O)c1ccc(O)cc1,p24,-,IIIB,CEM,EC50,<0.1 µM
CCCOC(=O)c1cc(NC(=S)OC(C)C)ccc1Cl,syncytia,RT-V106A,-,CEM,EC50,2.533 µM
Cc1cc(/C=C/C#N)cc(C)c1Oc1ccnc(S(=O)(=O)CC(=O)NCc2ccc(Br)cc2)n1,MTT,-,IIIB,MT-4,EC50,0.944 µM
CC(C)=CCOc1cc(NC(=S)c2ccsc2C)ccc1Cl,cytopathic effect / XTT,RT-P236L,HEPT-resistant (RT P236L),CEM + CEM-SS,EC50,0.02 µM
CSC(=Nc1ccc(Cl)c(C(=O)OC(C)C)c1)OC(C)C,syncytia,RT-L100I,-,CEM,EC50,>30.13 µM
CC(C)C1=C2[C@H]3CC[C@@H]4[C@@]5(C)CC[C@H](OC(=O)[C@H]6C[C@@H](C(=O)O)C6(C)C)C(C)(C)[C@@H]5CC[C@@]4(C)[C@]3(C)CC[C@@]2([C@@H](O)CNC(=O)c2ncc[nH]2)CC1=O,p24 / ELISA,-,92HT599,MT-2,EC50,<1 µM
C=CCOc1cc(NC(=S)OC(C)C)ccc1Cl,syncytia,RT-V106A,-,CEM,EC50,6.998 µM
CC/C=C\C/C=C\C/C=C\C/C=C\C/C=C\CCCC(=O)O[C@@H]1[C@@H](C)[C@@]2(O)[C@@H](C=C(CO)C[C@]3(O)C(=O)C(C)=C[C@@H]23)[C@@H]2C(C)(C)[C@]12OC(=O)CCC/C=C\C/C=C\C/C=C\C/C=C\C/C=C\CC,p24 / ELISA,-,IIIB,C8166,EC50,1.28 µM
C/C=C/COc1cc(NC(=S)OC(C)C)ccc1Cl,syncytia,RT-V106A,-,CEM,EC50,1.668 µM
Cc1cc(-c2ccc(C#N)cc2)cc(C)c1Oc1ccnc(S(=O)(=O)C(C)C(=O)Nc2ccc(C#N)cc2)n1,MTT,L100I,IIIB,MT-4,EC50,0.106 µM
C/C=C\COc1cc(NC(=S)OC(C)C)ccc1OC,syncytia,RT-L100I,-,CEM,EC50,10.16 µM
Cc1cc(-c2ccc(C#N)cc2)cc(C)c1Oc1ccnc(S(=O)(=O)CC(=O)NC(C)c2ccc(Br)cc2)n1,MTT,-,IIIB,MT-4,EC50,>3.21 µM
CC1=C[C@H]2[C@@]3(O)[C@H](C)[C@@H](OC(=O)CCCCCCCCCBr)[C@]4(OC(=O)CCCCCCCCCBr)[C@H]([C@@H]3C=C(CO)C[C@]2(O)C1=O)C4(C)C,p24 / ELISA,-,IIIB,C8166,EC50,19.9 µM
CC(C)OC(=S)Nc1ccc(Cl)c(C(=O)OCC2CC2)c1,syncytia,RT-V106A,-,CEM,EC50,8.236 µM

For reference, 5 entries again:

| smiles | read by | changes | strain or isolate | cells | endpoint | value |
|---|---|---|---|---|---|---|
| C/C=C\COc1cc(NC(=S)OC(C)C)ccc1OC | syncytia | RT-L100I | - | CEM | EC50 | 10.16 µM |
| C/C=C\COc1cc(NC(=S)OC(C)C)ccc1Cl | syncytia | RT-Y181C | - | CEM | EC50 | 2 µM |
| COC(=S)Nc1ccc(Cl)c(C(=O)OC(C)C)c1 | syncytia | RT-E138K | - | CEM | EC50 | >34.75 µM |
| CC(C)OC(=S)Nc1ccc(Cl)c(C(=O)OC2(C)COC2)c1 | syncytia | RT-V106A | - | CEM | EC50 | 2.472 µM |
| C=C(C)COc1cc(NC(=S)OC(C)C)ccc1Cl | syncytia | RT-Y181C | - | CEM | EC50 | >3.335 µM |